The numbers were not newly measured in publication PMC10173076 (Molecular Therapy Oncolytics, 2023), which cites them from elsewhere.

For the data set, the system named is subcutaneous non-small cell lung tumors. The conditions noted are these: AdSSTR2-treated mice; 48 h post-RP; ref 11 (Rogers et al.).

As for ^111In-DTPA-D- Phe1-octreotide, the tumor uptake is listed as 1.3% ± 0.7%.
